System: WT (W303) yeast
Conditions: 200 μM, 4 h incubation

CC/C=C\C/C=C\C/C=C\CCCCCCCC(=O)O [ALA, cis,cis,cis-9,12,15-Octadecatrienoic acid, reference compound]
incorporation of fatty acid by yeast: avidly incorporate

Reference: patent US10058612B2, “Impaired energy processing disorders and mitochondrial deficiency” (priority 2011, dated 2018)
